According to paper PMC3185582 (Viruses, 2010):

Test system: HEK-293, L929, MRC5, and SIRC cells
Conditions: 50 uM, 72 hour; unpublished work [21]

O=C(NN1C(=O)[C@@H]2[C@@H]3C=C[C@@H]([C@H]4C[C@@H]34)[C@@H]2C1=O)c1ccc(C(F)(F)F)cc1 [ST-246, Tecovirimat]
growth rate reduced relative to untreated controls: 30–40%
